# The exact form of at least one protein or probe is not confirmed. Negatives hold for the conditions tested. The comparison behind a weaker result is the experiment's own reference, which may not be listed here.
# Columns and labels:
# [1] = system: Ca_Rpn4p (Candida albicans NIH 3147 (ATCC 10231D)); assay: competition with a labelled probe; conditions: SPR, 1x and 5x competitor, HBS: 10 mM HEPES pH 7.4, 150 mM NaCl, 3 mM EDTA, 0.005% P20, room temperature, 10 ul/min, 90 s injection, competitors preincubated 50 min on ice, recombinant protein, protein details: N-terminal calmodulin-binding protein tag (pCAL-n)
# [2] = system: Ca_Rpn4p (Candida albicans NIH 3147 (ATCC 10231D)); assay: SPR; conditions: Biacore 3000 SA chip, recombinant protein, protein details: N-terminal calmodulin-binding protein tag (pCAL-n)
sequence,measurement,setting,value
CCAGATAATCGGTGGCAACACGGAAGAAAA (double strand) [Sequence F competitor],binding result,[1],binds more weakly
CCAGATAATCCTGCATTTGGCGGAAGAAAA (double strand) [Sequence G competitor],binding result,[1],no binding
ACTTGTTCCCGCTCGCTGGAGCTCCTCCAACGACACGGGC (double strand) [Sequence I],binding result,[2],no binding
GCGTGCCAGATAATCGAAGGCAAAACGGAAGAAAAAGTGA (double strand) [Sequence B],binding result,"[2]; 50 nM protein, nearly the same as Sequence C",binds more weakly
CCAGATAATCGGTGGCAAAACGGAAGAAAA (double strand) [Sequence D competitor],binding result,"[1]; best competitor on Sequences A, B, C",binds
GCGTGCCAGATAATCAGTGGCAACACGGAAGAAAAAGTGA (double strand) [Sequence C],binding result,"[2]; 50 nM protein, nearly the same as Sequence B",binds more weakly
GCGTGCCAGATAATCGGTGGCAAAACGGAAGAAAAAGTGA (double strand) [Sequence A],binding result,[2]; 50 nM protein,binds
CCAGATAATCAGTGGCAAAACGGAAGAAAA (double strand) [Sequence E competitor],binding result,[1],binds more weakly

# — article PMC526180, “Conservation and Evolution of Cis-Regulatory Systems in Ascomycete Fungi”
